PubChem BioAssay AID624099 – ICCB-Longwood, 2012
In all, the deposit lists about 21,000 reagents; below is a random part of them. Of all reagents, 497 (2.4%) are marked active. 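Higher z means weaker E2 silencing; only reporter increases were scored, and knock-downs that hurt cell survival may mask genuine repressor factors.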 A number with no mark means an inactive call.

- Assay: 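Host factors E2 relies on to silence an HPV18 LCR reporter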 (primary screen)
- Cell system: human C33A cervical carcinoma cells (HPV-negative) stably expressing BPV1 E2 and an HPV18 LCR luciferase reporter
- Knock-down reagent: siRNA pool against human genes, 40 nM
- Duration: 72 h
- Read-out: 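Per-well luciferase luminescence, z-scored on each plate against the plate mean and SD with control wells left out, then averaged across three replicate plates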
- Scale: mean z-score and z-score: higher = stronger reporter signal, weaker E2 silencing
- Call rule: 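Hit if mean z-score reaches 2 and two or more of three replicate z-scores also reach 2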

LEUTX (leucine twenty homeobox) — mean z-score: -0.23; z-score, replicate A: -0.32; z-score, replicate B: -0.29; z-score, replicate C: -0.09
BTAF1 (B-TFIID TATA-box binding protein associated factor 1) — mean z-score: 1.17; z-score, replicate A: 1.04; z-score, replicate B: 1; z-score, replicate C: 1.48
CNDP1 (carnosine dipeptidase 1) — mean z-score: 1.98; z-score, replicate A: 2.29; z-score, replicate B: 1.8; z-score, replicate C: 1.84
LOC400586 (retired record) — mean z-score: -0.64; z-score, replicate A: -0.58; z-score, replicate B: -0.92; z-score, replicate C: -0.43
TTLL6 (tubulin tyrosine ligase like 6) — mean z-score: -0.35; z-score, replicate A: -0.56; z-score, replicate B: -0.46; z-score, replicate C: -0.01
JAML (junction adhesion molecule like) — mean z-score: 2.53 (active); z-score, replicate A: 2.93; z-score, replicate B: 2.28; z-score, replicate C: 2.38
ARGLU1 (arginine and glutamate rich 1) — mean z-score: 0.04; z-score, replicate A: 0.27; z-score, replicate B: -0.36; z-score, replicate C: 0.21
SCAND2P (SCAN domain containing 2 pseudogene) — mean z-score: 0.17; z-score, replicate A: 0.34; z-score, replicate B: -0.08; z-score, replicate C: 0.26
MDH1 (malate dehydrogenase 1) — mean z-score: 0.37; z-score, replicate A: 0.07; z-score, replicate B: 0.67; z-score, replicate C: 0.38
RARB (retinoic acid receptor beta) — mean z-score: 1.06; z-score, replicate A: 1.1; z-score, replicate B: 0.99; z-score, replicate C: 1.09
FIBCD1 (fibrinogen C domain containing 1) — mean z-score: 1.23; z-score, replicate A: 1.54; z-score, replicate B: 0.96; z-score, replicate C: 1.21
RPL31P50 (ribosomal protein L31 pseudogene 50) — mean z-score: 0.51; z-score, replicate A: 0.19; z-score, replicate B: 0.73; z-score, replicate C: 0.61
CD19 (CD19 molecule) — mean z-score: -1.18; z-score, replicate A: -1.14; z-score, replicate B: -1.26; z-score, replicate C: -1.15
BCL9L (BCL9 like) — mean z-score: 0.79; z-score, replicate A: 0.22; z-score, replicate B: 0.78; z-score, replicate C: 1.35
EVA1C (eva-1 homolog C) — mean z-score: -0.04; z-score, replicate A: -0.3; z-score, replicate B: -0.15; z-score, replicate C: 0.34
JPT2 (Jupiter microtubule associated homolog 2) — mean z-score: -1.83; z-score, replicate A: -1.69; z-score, replicate B: -1.96; z-score, replicate C: -1.86
PTGIS (prostaglandin I2 synthase) — mean z-score: -0.18; z-score, replicate A: 0.71; z-score, replicate B: -0.62; z-score, replicate C: -0.64
LOC388459 (retired record) — mean z-score: 0.59; z-score, replicate A: 0.2; z-score, replicate B: 0.69; z-score, replicate C: 0.89
FOXD3 (forkhead box D3) — mean z-score: 0.68; z-score, replicate A: 0.48; z-score, replicate B: 0.76; z-score, replicate C: 0.79
BCL2L2 (BCL2 like 2) — mean z-score: -0.22; z-score, replicate A: -0.38; z-score, replicate B: -0.13; z-score, replicate C: -0.16
LETM2 — mean z-score: 0.41; z-score, replicate A: 0.82; z-score, replicate B: -0.04; z-score, replicate C: 0.45

3 entries from above in another layout:
RPL31P50 (ribosomal protein L31 pseudogene 50)
- mean z-score: 0.51
- z-score, replicate A: 0.19
- z-score, replicate B: 0.73
- z-score, replicate C: 0.61

CD19 (CD19 molecule)
- mean z-score: -1.18
- z-score, replicate A: -1.14
- z-score, replicate B: -1.26
- z-score, replicate C: -1.15

BCL9L (BCL9 like)
- mean z-score: 0.79
- z-score, replicate A: 0.22
- z-score, replicate B: 0.78
- z-score, replicate C: 1.35
